{"source": "patent US4500516A", "about": "“Antibacterial pharmaceutical composition” (priority 1982, dated 1985)", "origin": "cited, not measured here", "tested_on": "pathogenic microorganisms", "conditions": "cited from earlier work"}
{"molecule": "O=C1CN(N=CC=Cc2ccc([N+](=O)[O-])o2)C(=O)N1", "values": [{"measurement": "development of drug resistance", "setting": "microorganisms", "result": "practically no drug resistance"}, {"measurement": "activity against resistant strains", "setting": "pathogenic strains of staphylococci and microorganisms resistant to other chemotherapeutic agents and antibiotics", "result": "retains its activity"}]}
